A mixed list of measured activities; the numbers were collected in NIAID ChemDB.

All rows: whole-cell or culture tests; species: Herpes simplex virus 1; cells: MRC-5; measure: EC50

An empty or dashed field is not shown.

compound | strain or isolate | read by | value
ClCc1csc2ccccc12 | MCRAE | cytopathic effect | 0.1 µg/mL
CCCCCCCCCCCCCCCCSC[C@H](O)COP(=O)(O)C(=O)O | - | - | 4.3 µM
Cc1cn([C@@H]2O[C@H](CO)[C@@H](O)[C@@H]2O)c(=S)[nH]c1=O | KOS | plaque count | 109 µM
N#Cc1cc2ccncc2c2sc3ccccc3c12 | MCRAE | cytopathic effect | <1 µg/mL
COc1cc(C2c3cc4c(cc3C[C@H]3COC(=O)[C@H]23)OCO4)cc(OC)c1OC | INOUE | - | 0.006 µg/mL
O=C(O)P(=O)(O)O | - | - | 41.2 µM
O=c1[nH]c(=S)n([C@@H]2O[C@H](CO)[C@@H](O)[C@@H]2O)cc1I | TK- | plaque count | 240 µM
COc1cc(C2c3c(cc4c(c3OC)OCO4)C[C@H]3COC(=O)[C@H]23)cc(OC)c1OC | KOS | - | 0.053 µg/mL
Nc1ncnc2c1ncn2OCC/C=C/P(=O)(O)O | SC16 | cytopathic effect | >300 µM
O=c1[nH]c(=O)n([C@@H]2C[C@@H](O)[C@H](CO)O2)cc1/C=C/Br | - | plaque count | 3.2 µM
Nc1ncnc2c1ncn2CC/C=C\P(=O)(O)O | SC16 | cytopathic effect | >300 µM
Nc1nc2c(ncn2COCCO)c(=O)[nH]1 | - | plaque count | 2.2 µM
CCCCCCCCCCCCCCCCOC[C@@H](O)COP(=O)(O)C(=O)O | - | - | 2.9 µM
COc1cc(C[C@H]2C(=O)OC[C@@H]2Cc2ccc3c(c2)OCO3)cc(OC)c1OC | KOS | - | >11.9 µg/mL
O=c1[nH]c(=S)n([C@H]2C[C@H](O)[C@@H](CO)O2)cc1I | TK- | plaque count | >271 µM
Nc1ccn(OC(/C=C/P(=O)(O)O)CO)c(=O)n1 | SC16 | cytopathic effect | >300 µM
CCCCCCCCCCCCCCCCCCCCCCSC[C@H](O)COP(=O)(O)C(=O)O | - | - | 15 µM
Nc1ncnc2c1ncn2OC(/C=C/P(=O)(O)O)CO | SC16 | cytopathic effect | >300 µM
O=c1[nH]c(=S)n([C@H]2C[C@H](O)[C@@H](CO)O2)cc1F | TK- | plaque count | >383 µM

2 of the rows above, restated:

compound,strain or isolate,read by,value
Nc1nc2c(ncn2COCCO)c(=O)[nH]1,-,plaque count,2.2 µM
COc1cc(C2c3cc4c(cc3C[C@H]3COC(=O)[C@H]23)OCO4)cc(OC)c1OC,INOUE,-,0.006 µg/mL

Rows are shuffled and stem from different studies. ECn is the concentration giving n% inhibition of infection, replication or growth.